Consider nine substances from paper PMC4844700, “Rifampin phosphotransferase is an unusual antibiotic resistance kinase” (Nature Communications, 2016).

In the first series the test system is Nc1ncnc2c1ncn2[C@@H]1O[C@H](COP(=O)(O)OP(=O)(O)OP(=O)(O)O)[C@@H](O)[C@H]1O. Description: purified protein. Conditions: RIF at five times its Km, 50 mM Hepes pH 7.5, 5 mM MgCl2, 40 mM NH4Cl, 25 °C, 11.3 μM enzyme.
What is called Km is the substrate concentration at which the rate is half of its maximum. The term kcat denotes the number of substrate molecules converted per active site and unit of time at saturation. In general, kcat/Km refers to the second-order rate constant that governs catalysis at low substrate concentration. As to “RPH-Lm (rifampin phosphotransferase) (Listeria monocytogenes serotype 4b str. F2365; T136V)”, the Km was 53.88 ± 6.54 µM, the kcat is 2.1 s⁻¹ and the kcat/Km came to 39500 M⁻¹ s⁻¹.
For “RPH-Lm (rifampin phosphotransferase) (Listeria monocytogenes serotype 4b str. F2365; R117A)”, in that order: 56.12 ± 8.36 µM, 2.39 s⁻¹ and 43000 M⁻¹ s⁻¹.
The corresponding values for “RPH-Lm (rifampin phosphotransferase) (Listeria monocytogenes serotype 4b str. F2365; R666A)” are 169.29 ± 43.68 µM, 2.71 s⁻¹ and 16000 M⁻¹ s⁻¹.
For “RPH-Lm (rifampin phosphotransferase) (Listeria monocytogenes serotype 4b str. F2365; E667A)”, in that order: 24.65 ± 5.19 µM, 1.78 s⁻¹ and 72000 M⁻¹ s⁻¹.
As to “RPH-Lm (rifampin phosphotransferase) (Listeria monocytogenes serotype 4b str. F2365; E297A)”, the Km is 49.49 ± 6.85 µM, the kcat was determined as 43.2 s⁻¹ and the kcat/Km is 873000 M⁻¹ s⁻¹.

Another series relates to CO[C@H]1/C=C/O[C@@]2(C)Oc3c(C)c(O)c4c(O)c(c(/C=N/N5CCN(C)CC5)c(O)c4c3C2=O)NC(=O)/C(C)=C\C=C\[C@H](C)[C@H](O)[C@@H](C)[C@@H](O)[C@@H](C)[C@H](OC(C)=O)[C@@H]1C. Nature of the series: purified protein. Conditions: ATP at five times its Km, 50 mM Hepes pH 7.5, 5 mM MgCl2, 40 mM NH4Cl, 25 °C, 11.3 μM enzyme.
As to “RPH-Lm (rifampin phosphotransferase) (Listeria monocytogenes serotype 4b str. F2365; V368T)”, the Km turned out to be 3.65 ± 1.09 µM, the kcat worked out at 30 s⁻¹ and the kcat/Km came out at 8.22e+06 M⁻¹ s⁻¹.
For “RPH-Lm (rifampin phosphotransferase) (Listeria monocytogenes serotype 4b str. F2365; Q337A)”, in that order: 6 ± 2 µM, 15.4 s⁻¹ and 2.7e+06 M⁻¹ s⁻¹.
For “RPH-Lm (rifampin phosphotransferase) (Listeria monocytogenes serotype 4b str. F2365; Y351F)”, in that order: 4.08 ± 1.55 µM, 15.9 s⁻¹ and 3.89e+06 M⁻¹ s⁻¹.
For “RPH-Lm (rifampin phosphotransferase) (Listeria monocytogenes serotype 4b str. F2365; V368E)”, in that order: 4.56 ± 1.78 µM, 45.7 s⁻¹ and 9.8e+06 M⁻¹ s⁻¹.
Turning to “RPH-Lm (rifampin phosphotransferase) (Listeria monocytogenes serotype 4b str. F2365; E297A)”, the Km came to 4.76 ± 1.26 µM, the kcat amounted to 45 s⁻¹ and the kcat/Km worked out at 9.43e+06 M⁻¹ s⁻¹.
